# Data published in patent US11306344B2, “Spectral intensity ratio (SIR) analysis for rapid live microbial enumeration” (TACOUNT EXACT LTD., priority 2015, dated 2022).
# Where no unit stands, none is given here, and values compare only within one read-out.
# Key:
# Format in all cases: cell-based
# E. coli = experiment: Microscopy fluorescence imaging, gray level analysis of stained bacteria
# E. coli #8739 [1] = experiment: Flow-Cytometry SIR and NVP of dye-stained bacteria
# E. coli #8739 [2] = experiment: Fluorimeter (spectrofluorimetry) spectra, SIR and NVP of dye-stained bacteria
Compound,"fluorescence intensity I, gray level per object (E. coli; Emission 600(50) nm, Chlorinated inactivated bacteria)","fluorescence intensity I, gray level per object (E. coli; Emission 600(50) nm, Ethanol 70% inactivated bacteria)","fluorescence intensity I, gray level per object (E. coli; Emission 600(50) nm, Heated inactivated bacteria)","fluorescence intensity I, gray level per object (E. coli; Emission 600(50) nm, UV-MP inactivated bacteria)","fluorescence intensity I, gray level per object (E. coli; Excitation 470 nm, Emission 525(50) nm, Heated inactivated bacteria)","fluorescence intensity I, gray level per object (E. coli; Excitation 470 nm, Emission 525(50) nm, Live bacteria)","fluorescence intensity I, gray level per object (E. coli; Excitation 470 nm, Emission 600(50) nm, Live bacteria)",mean fluorescence intensity I530 (E. coli #8739 [1]; heated inactivated bacteria),mean fluorescence intensity I610 (E. coli #8739 [1]; heated inactivated bacteria),mean fluorescence intensity I530 (E. coli #8739 [1]; live bacteria),mean fluorescence intensity I610 (E. coli #8739 [1]; live bacteria),"fluorescence intensity increase, inactivated vs live (E. coli #8739 [2]; at 530 nm) [fold]","fluorescence intensity increase, inactivated vs live (E. coli #8739 [2]; at 610 nm) [fold]","maximum emission peak (E. coli #8739 [2]; free dye in PBS, excitation 488 nm) [nm]",maximum emission peak (E. coli #8739 [2]; inactivated bacteria (85° C.)) [nm],maximum emission peak (E. coli #8739 [2]; live bacteria) [nm],maximum emission peak (E. coli #8739 [2]; chlorinated bacteria) [nm],"maximum emission peak (E. coli #8739 [2]; heated (85°, 15 min) bacteria) [nm]"
"CCCCN(CCCC)c1ccc(/C=C/c2cc[n+](CCC[N+](CC)(CC)CC)cc2)cc1.[Br-].[Br-] [FM® 1-43, N-(3-Triethylammoniumpropyl)-4-(4-(Dibutylamino) Styryl) Pyridinium Dibromide]",135(±20) GL,90(±10) GL,128(±20) GL,120(±20) GL,40(±10) GL,35(±5) GL,20-50 GL,457,4045,42,31,4,20,635,595,560,–,–
"CCN(CC)c1ccc(C=CC=CC=Cc2cc[n+](CCC[N+](CC)(CC)CC)cc2)cc1.[Br-].[Br-] [FM® 4-64, N-(3-Triethylammoniumpropyl)-4-(6-(4-(Diethylamino) Phenyl) Hexatrienyl) Pyridinium Dibromide]",–,–,–,–,–,–,–,–,–,–,–,–,–,–,–,690,760,740
